Measured values from several laboratories, pooled; numbers as filed in NIAID ChemDB.

All rows: whole-cell or culture tests; species: Mycobacterium tuberculosis

Percent inhibition refers to the dose given; in toxicity tests it is the harm to the cells. MIC50, MIC90 and the like: level of inhibition, or share of isolates inhibited. MIC bound comes from a single tested concentration. Neighbouring rows are from separate reports. Blank or dashed fields: not listed here.

structure | method | strain or isolate | cell line | tested at | endpoint | value
CO[C@H]1/C=C/O[C@@]2(C)Oc3c(C)c(O)c4c(O)c(c(/C=N/N5CCN(C)CC5)c(O)c4c3C2=O)NC(=O)/C(C)=C\C=C\[C@H](C)[C@H](O)[C@@H](C)[C@@H](O)[C@@H](C)[C@H](OC(C)=O)[C@@H]1C |  | Isolate 2 |  |  | MIC | >32 µg/mL
CC[C@H]1OC(=O)[C@H](C)[C@@H](O[C@H]2C[C@@](C)(OC)[C@@H](O)[C@H](C)O2)[C@H](C)[C@@H](O[C@@H]2O[C@H](C)C[C@H](N(C)C)[C@H]2O)[C@](C)(OC)C[C@@H](C)C(=O)[C@H](C)[C@@H](O)[C@]1(C)O |  | 98596 |  |  | MIC | >4 µg/mL
Clc1ccc(CCNCCNC2CCCCC2)c(Cl)c1 |  |  |  |  | MIC | 50 µM
Cc1cc(-c2ccc(N=Nc3ccc4c(S(=O)(=O)O)cc(S(=O)(=O)O)c(N)c4c3O)c(C)c2)ccc1N=Nc1ccc2c(S(=O)(=O)O)cc(S(=O)(=O)O)c(N)c2c1O | BACTEC | H37Rv |  | 12.5 µg/mL | inhibition | 1%
COc1ccc(/C=N/Nc2ccnc3ccc(C4CCCCC4)cc23)c2ccccc12 |  | H37Rv | VERO | 12.5 µg/mL | inhibition | 100%
C[C@@H]1CN(c2c(F)c(N)c3c(=O)c(C(=O)O)cn(C4CC4)c3c2F)C[C@H](C)N1 |  | Isolate 6 |  |  | MIC | 4 µg/mL
NCCc1ccc(O)cc1 |  | H37Rv |  |  | MIC | >1600 µg/mL
O=c1c(O)c(-c2ccccc2)oc2ccc(I)cc12 |  | H37Rv |  |  | MIC | >12.5 µg/mL
NC(=O)c1cnccn1 |  | T2614/NIACIN+ |  |  | MIC | 32 µg/mL
O=S(=O)(Cc1cn(-c2ccc(Cl)cc2)nn1)C1c2ccccc2-c2ccccc21 | broth dilution | H37Rv |  |  | MIC99 | 119 µM
COC(=O)[C@@]12OC[C@]34C([C@@H](O)[C@@H]1O)[C@@]1(C)CC(=O)C(O)=C(C)[C@@H]1C[C@H]3OC(=O)[C@H](OC(=O)/C=C(\C)C(C)(C)O)[C@@H]24 | BACTEC | H37Rv |  |  | MIC bound | >12.5 µg/mL
Nc1ccc(C(=O)O)c(C(=O)O)c1 |  | H37Rv |  |  | MIC | >100 µg/mL
CC1=NN(C(=O)c2ccncc2)C(=O)C1N=Nc1ccc(S(=O)(=O)Nc2nccs2)cc1 | BACTEC | H37Rv |  |  | MIC bound | >12.8 µg/mL
O=[N+]([O-])c1ccccc1-n1cc(CS(=O)(=O)C2c3ccccc3-c3ccccc32)nn1 | broth dilution | Specimen 192 |  |  | MIC99 | >231 µM
O=S(=O)(Oc1ccccc1)c1ccc(Br)cc1 |  | H37Rv |  |  | MIC | >100 µg/mL
CO[C@H]1/C=C/O[C@@]2(C)Oc3c(C)c(O)c4c(O)c(c(/C=N/N5CCN(C)CC5)c(O)c4c3C2=O)NC(=O)/C(C)=C\C=C\[C@H](C)[C@H](O)[C@@H](C)[C@@H](O)[C@@H](C)[C@H](OC(C)=O)[C@@H]1C |  | H37Rv |  |  | Mean MIC | 0.16 µg/mL
O=C1c2ccccc2C(=O)c2c(NCCNCCO)ccc(NCCNCCO)c21 | BACTEC | H37Rv |  |  | MIC bound | >12.5 µg/mL
CC(=O)NS(=O)(=O)c1cc(N)ccc1S(=O)(=O)c1ccc(N)cc1 |  | H37Rv |  |  | MIC | 50 µg/mL
NCC[C@H](O)C(=O)N[C@@H]1C[C@H](N)[C@@H](O[C@H]2O[C@H](CN)[C@@H](O)[C@H](O)[C@H]2O)[C@H](O)[C@H]1O[C@H]1O[C@H](CO)[C@@H](O)[C@H](N)[C@H]1O |  | TN3218 (W3) |  |  | MIC | >256 µg/mL
CCCNCCNC[C@]1(C)CCC[C@]2(C)c3ccc(C(C)C)cc3CC[C@@H]12 |  |  |  |  | MIC | 12.5 µM
O=C1C(Cl)=C(Cl)C(Cl)(Cl)C(Cl)=C1Cl |  | H37Rv |  |  | MIC | 50 µg/mL
CO[C@H]1/C=C/O[C@@]2(C)Oc3c(C)c(O)c4c(O)c(c(/C=N/N5CCN(C)CC5)c(O)c4c3C2=O)NC(=O)/C(C)=C\C=C\[C@H](C)[C@H](O)[C@@H](C)[C@@H](O)[C@@H](C)[C@H](OC(C)=O)[C@@H]1C |  | 84396 |  |  | MIC | ≥2 µg/mL
Clc1cc(Cl)c2c(N/N=C/c3ccc4c(c3)OCO4)ccnc2c1 |  | H37Rv | VERO | 12.5 µg/mL | inhibition | 4%
Cc1cc(=O)[nH]c2[nH][nH]c(=O)c12 | BACTEC | H37Rv |  | 12.5 µg/mL | inhibition | 7%
OCc1ccccc1O |  | H37Rv |  |  | MIC | >100 µg/mL
O=S(=O)(O)c1cc(O)c(O)c2n[nH]nc12 | resazurin | H37Rv |  | 6.25 µg/mL | inhibition | 2%
C[C@H]1COc2c(N3CCN(C)CC3)c(F)cc3c(=O)c(C(=O)O)cn1c23 |  | CSU11 |  |  | MIC | 0.25 µg/mL
Nc1ccc(O)c([As](=O)(O)O)c1 |  | H37Rv |  |  | MIC | >100 µg/mL
CCOc1cc(O)c(C(=O)/C=C/c2cc(OC)c(OC)c(OC)c2)c(O)c1 |  | H37Rv |  | 12.5 µg/mL | inhibition | 0%
C[C@H]1COc2c(N3CCN(C)CC3)c(F)cc3c(=O)c(C(=O)O)cn1c23 |  | 001-010 (drug-resistant) |  |  | MBC | 1 µg/mL
O=c1ssc2ccccc12 | BACTEC | H37Rv |  | 12.5 µg/mL | inhibition | 53%
COc1ccc(/C=C/C(=O)c2ccc([N+](=O)[O-])cc2)cc1 |  | H37Rv |  |  | MIC | >12.5 µg/mL
O=C(O)c1cn(C2CC2)c2c(F)c(N3CCSCC3)c(F)cc2c1=O |  | CSU20 |  |  | MIC | 1 µg/mL
Nc1ccc(C(=O)O)c(O)c1 |  | H37Rv |  |  | Median MIC | 0.5 µg/mL
COc1ccc2ccccc2c1/C=N/Nc1cc(C)nc2cc(Cl)ccc12 |  | H37Rv | VERO |  | MIC | 6.25 µg/mL
Cc1ccc(C)n1-c1ccc(S(=O)(=O)c2ccc(N)cc2)cc1 |  | H37Rv |  |  | MIC | >100 µg/mL
Cc1cc(O)c(C(C)C)cc1C1(c2cc(C(C)C)c(O)cc2C)OC(=O)c2ccccc21 | BACTEC | H37Rv |  |  | MIC bound | >6.25 µg/mL
O=C(c1ccc(O)c(O)c1)c1ccc(O)c(O)c1 |  | H37Rv |  |  | MIC | 100 µg/mL
C[C@@H]1CN(c2c(F)c(N)c3c(=O)c(C(=O)O)cn(C4CC4)c3c2F)C[C@H](C)N1 |  | CSU26 |  |  | MIC | ≤0.125 µg/mL
CC1(C)C(=O)N2c3ccccc3C3(CC(N4C(=O)c5ccccc5C4=O)C(=O)O3)C2N1C(=O)OCc1ccccc1 | BACTEC | H37Rv |  |  | MIC | ≥12.5 µg/mL
COc1ccc(Nc2ccc3c4c2C(=O)c2ccccc2-c4c(C(=O)c2ccccc2)c(=O)n3C)c(S(=O)(=O)O)c1.N |  | H37Rv |  |  | MIC | >100 µg/mL
CC(CNCCC(c1ccccc1)c1ccccc1)NC1CCCC(C)C1C |  |  |  |  | MIC | 50 µM
CN(C(=O)c1ccccc1)[C@H]1CCCC(=O)CC1 | BACTEC | H37Rv |  |  | MIC | ≥12.5 µg/mL
CCCCCCOc1ccc(NC(=O)OCCN(C)C)cc1 |  | My 331/88 |  |  | MIC | 16 µM
COC(=O)C1C2CC3c4[nH]c5cc(OC)ccc5c4CCN3CC2CC(OC(=O)c2cccc(N)c2)C1OC | BACTEC | H37Rv |  | 12.5 µg/mL | inhibition | 20%
CCCCCCCCCCOc1cccc(NC(=O)OCCN2CCOCC2)c1 |  | My 331/88 |  |  | MIC | 16 µM
O=C(O)CC1(CC(=O)Nc2ccc(I)cc2)OCOC1=O |  | H37Rv |  |  | MIC | >100 µg/mL
CCOc1ccc(NC(=O)OCC[NH+]2CCCC2)cc1 |  | My 331/88 |  |  | MIC | 1000 µM
Fc1ccccc1-n1cc(CNC2c3ccccc3-c3ccccc32)nn1 | broth dilution | Specimen 192 |  |  | MIC99 | 281 µM
CCc1cc(C(N)=S)ccn1 |  | H37Rv |  |  | Median MIC | 0.94 µg/mL
Clc1ccccc1-n1cc(CSC2c3ccccc3-c3ccccc32)nn1 | broth dilution | H37Rv |  |  | MIC99 | >256 µM
CCN(CC)c1ccc(Nc2c3ccc(Cl)cc3nc3ccc(OC)cc23)cc1 |  | H37Rv |  |  | MIC | 50 µg/mL
CC(=O)Nc1ccc(/C=N/NC(N)=S)cc1 |  | Isolate E (drug-resistant) |  |  | MIC | 20 µg/mL
CC1C(C(=O)O)C(c2ccco2)=NN1c1ccccc1 |  | H37Rv |  |  | MIC bound | >6.25 µg/mL
CCOc1ccc2c(N/N=C/c3ccc(N(CC)CC)cc3)ccnc2c1 |  | H37Rv | VERO |  | MIC | 6.25 µg/mL
CC(=O)/C(C)=N/NC(=O)c1ccccn1 | BACTEC | H37Rv |  | 12.5 µg/mL | inhibition | 88%
NNC(=O)c1ccncc1 |  | H37Ra |  |  | Mean MIC | 0.05 µg/mL
NC(=O)OCCOCCOC(N)=O |  | H37Rv |  |  | MIC | >100 µg/mL
N[C@@H]1CONC1=O |  | H37Rv |  |  | Median MIC | 25 µg/mL
O=C(/C=C\c1ccccc1)/C=N/N1C(=S)N(c2ccccc2)C(=Nc2ccccc2)C1=Nc1ccccc1 | BACTEC | H37Rv |  | 12.5 µg/mL | inhibition | 29%
CCCCCCCCOc1cccc(NC(=O)OCCN2CCCCC2)c1 |  | My 331/88 |  |  | MIC | 16 µM
Cc1ccc(-c2ccc3ccc(C(F)(F)F)cc3n2)cc1 |  | H37Rv |  |  | MIC | >100 µg/mL
COc1ccc(Cc2c(-c3ccc(C)cc3)n[nH]c(=O)c2C2C(=O)N(c3ccccc3)N=C2c2ccccc2)cc1 | resazurin | H37Rv |  |  | MIC bound | >6.25 µg/mL
CN[C@@H]1[C@H](O[C@H]2[C@H](O[C@H]3[C@H](O)[C@@H](O)[C@H](N=C(N)N)[C@@H](O)[C@@H]3N=C(N)N)O[C@@H](C)[C@]2(O)C=O)O[C@@H](CO)[C@H](O)[C@H]1O |  | Isolate 15 |  |  | MIC | >128 µg/mL
O=C(O)/C(=C\c1ccc2c(c1)OCO2)NC(=O)c1ccccc1 |  | H37Rv |  |  | MIC | 100 µg/mL
O=C(/C=C/c1ccccc1)c1cc(Br)ccc1O |  | H37Rv |  | 12.5 µg/mL | inhibition | 68%
C[N+](C)(CCCCCCCCCCOc1ccccc1)CCCCCCCCCCOc1ccccc1.[Br-] |  | H37Rv |  |  | MIC | 25 µg/mL
c1ccc(C(CNCCNC2CCCCCCC2)c2ccccc2)cc1 |  |  |  |  | MIC | 3.13 µM
COc1c(-c2ccccc2)oc2ccc(Br)cc2c1=O |  | H37Rv |  |  | MIC | >12.5 µg/mL
NC(=O)c1ccccc1Cc1ccccc1 |  | H37Rv |  |  | MIC | >100 µg/mL
Cc1onc(-c2ccccc2Cl)c1C(=O)N[C@@H]1C(=O)N2[C@@H]1SC(C)(C)[C@@H]2C(=O)O |  | H37Rv |  |  | Median MIC | 256 µg/mL
COc1cccc2c(NN)cc(C)nc12 |  | H37Rv | VERO | 12.5 µg/mL | inhibition | 54%
NC(=S)Nc1ccccc1Cl |  | H37Rv |  |  | MIC | >100 µg/mL
COC1CCC(OC2CC(C3(C)CCC4(CC(O)C(C)C(C(C)/C=C(\C)C(=O)C(C)CC(C)C(=O)O)O4)O3)OC3(OC(C4OC(O)(CO)C(C)CC4C)CC3C)C2C)OC1C | BACTEC | H37Rv |  |  | MIC bound | ≤128 µg/mL
CCCCCCOc1ccc(NC(=O)OCCN2CCOCC2)cc1 |  | My 331/88 |  |  | MIC | 32 µM
O=c1/c(=C\c2ccc(Cl)c(Cl)c2)sc2n1CCN=2 | BACTEC | H37Rv |  | 6.25 µg/mL | inhibition | 56%
CC(=O)N=C1CC(OC(C)=O)=NN1c1ccccc1 |  | H37Rv |  |  | MIC | >100 µg/mL
COc1c2c(c(OC)c3c(=O)cc(CC(C(=O)Nc4cc(C)ccc4C)N(N)C(=O)C[n+]4ccccc4)oc13)OCO2.[Cl-] | BACTEC | H37Rv |  | 12.5 µg/mL | inhibition | 3%
O=C1CNC(=O)N1 |  | H37Rv |  |  | MIC | >100 µg/mL
CC(C)C1=CC2=CC(O)C3C(C)(C)CCCC3(C)C2=C(O)C1=O | BACTEC | H37Rv |  |  | MIC bound | >12.5 µg/mL
CC1CN(c2c(F)cc3c(=O)c(C(=O)O)cn(C4CC4)c3c2F)CCN1 |  | CSU20 |  |  | MIC | ≤0.125 µg/mL
Cc1cc2c(cc1C)[n+](=O)c(C(=O)C/C(=N\NC(=O)CC#N)C(=O)Nc1ccccc1C(F)(F)F)c(C)n2[O-] | BACTEC | H37Rv |  | 12.5 µg/mL | inhibition | 99%
CC1COc2c(N3CCN(C)CC3)c(F)cc3c(=O)c(C(=O)O)cn1c23 |  | 890902 |  |  | MIC | 0.5 µg/mL

Repeating the final 9 entries:

structure	method	strain or isolate	cell line	tested at	endpoint	value
CCCCCCOc1ccc(NC(=O)OCCN2CCOCC2)cc1		My 331/88			MIC	32 µM
O=c1/c(=C\c2ccc(Cl)c(Cl)c2)sc2n1CCN=2	BACTEC	H37Rv		6.25 µg/mL	inhibition	56%
CC(=O)N=C1CC(OC(C)=O)=NN1c1ccccc1		H37Rv			MIC	>100 µg/mL
COc1c2c(c(OC)c3c(=O)cc(CC(C(=O)Nc4cc(C)ccc4C)N(N)C(=O)C[n+]4ccccc4)oc13)OCO2.[Cl-]	BACTEC	H37Rv		12.5 µg/mL	inhibition	3%
O=C1CNC(=O)N1		H37Rv			MIC	>100 µg/mL
CC(C)C1=CC2=CC(O)C3C(C)(C)CCCC3(C)C2=C(O)C1=O	BACTEC	H37Rv			MIC bound	>12.5 µg/mL
CC1CN(c2c(F)cc3c(=O)c(C(=O)O)cn(C4CC4)c3c2F)CCN1		CSU20			MIC	≤0.125 µg/mL
Cc1cc2c(cc1C)[n+](=O)c(C(=O)C/C(=N\NC(=O)CC#N)C(=O)Nc1ccccc1C(F)(F)F)c(C)n2[O-]	BACTEC	H37Rv		12.5 µg/mL	inhibition	99%
CC1COc2c(N3CCN(C)CC3)c(F)cc3c(=O)c(C(=O)O)cn1c23		890902			MIC	0.5 µg/mL